Tests used:
Aspergillus flavus = conditions: versus untreated control; 0% = level of control, 100% = below limit of detection; registered dose rate (fludioxonil 125 g a.i./ha); 6 days, 28° C.
Aspergillus parasiticus = conditions: versus untreated control; 0% = level of control, 100% = below limit of detection; registered application rate (fludioxonil 125 g a.i./ha); 6 days, 20° C.

Row | Structure (SMILES) | Reduction (%) of aflatoxin B1 production by Aspergillus flavus (Aspergillus flavus) | Reduction (%) of aflatoxin B1 production by Aspergillus parasiticus (Aspergillus parasiticus)
1 | N#Cc1c[nH]cc1-c1cccc2c1OC(F)(F)O2 [Fludioxonil] | 77% | 78%
2 | OC(Cc1ccccc1Cl)(Cn1nc[nH]c1=S)C1(Cl)CC1 (centres unmarked) [Prothioconazole] | 84% | 52%
3 | CC(C)(C)C(O)(CCc1ccc(Cl)cc1)Cn1cncn1 (centres unmarked) [Tebuconazole] | 53% | 94%
4 | CON=C(C(=O)OC)c1ccccc1CON=C(C)c1cccc(C(F)(F)F)c1 [Trifloxystrobin] | 93% | 88%

— US20110105577A1 (priority 2007, published 2011)
